Pooled drug test results. Numbers come from NIAID ChemDB, via PubChem.

Common to all: tests in culture; organism: HIV-2; read-out: EC50

Lines come from different laboratories, so protocols vary.

structure	cell line	read by	strain or isolate	value
O=C1c2ccccc2C(=O)N1CC12CC3CC(CC(O)(C3)C1)C2	CEM	syncytia	ROD	>20 µg/mL
S=c1[nH]c(=S)c2nc(-c3ccccn3)c(-c3ccccn3)nc2[nH]1	MT-4	cytopathic effect / MTT / absorbance	ROD	>93.23 µM
CC[C@H](C)[C@H](NC(=O)c1ccccc1SSc1ccccc1C(=O)N[C@H](C(=O)O)[C@@H](C)CC)C(=O)O	CEM	XTT	-	4.7 µM
Cc1cn([C@H]2C[C@H](N=[N+]=[N-])[C@@H](CO)O2)c(=O)[nH]c1=O	C8166	cytopathic effect	ROD	0.00307 µg/mL
Cc1cc(C#N)cc(C)c1Oc1nc(NC2CCN(S(N)(=O)=O)CC2)nc2ccsc12	MT-4	MTT	ROD	>20.35 µM
Cc1cn([C@H]2C=C[C@@H](CO)O2)c(=O)[nH]c1=O	CEM/TK-	syncytia / microscopy	ROD	173 µM
N#Cc1c(SSc2nsc(-c3ccccc3)c2C#N)nsc1-c1ccccc1	MT-4	cytopathic effect	ROD	17.4 µg/mL
NC12CC3CC(CC(C3)C1C(=O)c1ccccc1C(=O)O)C2	CEM	syncytia	ROD	>100 µg/mL
Cc1cn([C@H]2C[C@H](N=[N+]=[N-])[C@@H](CO)O2)c(=O)[nH]c1=O	MT-4	cytopathic effect	ROD	0.0005 µg/mL
COc1cc(C)cc2c(-c3c(O)cc(O)c4c3C[C@H](C)N[C@H]4C)cc(-c3cc(-c4c(O)cc(O)c5c4C[C@H](C)N[C@H]5C)c4cc(C)cc(OC)c4c3O)c(O)c12	MT-2	cytopathic effect / XTT	NIH-DZ	>250 µM
C=C(C)OC(=O)N1c2cc(Cl)ccc2NC(=S)C1(C)C	PBL	p24	ROD	>100 µM
CNOC(=O)Cn1c(=O)c(C)cn([C@@H]2O[C@H](CO[Si](C)(C)C(C)(C)C)[C@@H](O)[C@H]2O[Si](C)(C)C(C)(C)C)c1=O	MT-4	cytopathic effect / trypan blue	ROD	>10 µM
NS(=O)(=O)c1ccc(NC(=O)c2ccccc2SSc2ccccc2C(=O)Nc2ccc(S(N)(=O)=O)cc2)cc1	CEM + CEM-SS	XTT	-	1.6 µM
NC(=O)c1cc2c([nH]c3ccccc32)c(-c2ccc(CO)o2)n1	C8166	syncytia	CBL-20	0.89 µM
COC(=O)Cn1c(=O)c(C)cn([C@H]2C=C[C@@H](CO[Si](C)(C)C(C)(C)C)O2)c1=O	MT-4	cytopathic effect / trypan blue	ROD	>10 µM
O=C1c2ccccc2C(=O)N1CCCC1C2CC3CC(C2)CC1C3	CEM	syncytia	ROD	>4 µg/mL
CCCCCCCCCC(=O)Oc1ccc(COP(=O)(OCc2ccc(OC(=O)CCCCCCCCC)cc2)OP(=O)([O-])OC[C@@H]2C=C[C@H](n3ccc(=O)[nH]c3=O)O2)cc1	CEM/TK-	syncytia	ROD	>10 µM
Cc1cn([C@@H]2O[C@H](CO[Si](C)(C)C(C)(C)C)[C@@H](O)[C@H]2O[Si](C)(C)C(C)(C)C)c(=O)n(CCCCC(=O)O)c1=O	CEM	syncytia	ROD	>10 µM
O=c1ncc2nc(-c3ccccn3)c(-c3ccccn3)nc2[nH]1	MT-4	cytopathic effect / MTT / absorbance	ROD	>82.3 µM
Cc1cc(C#N)cc(C)c1Oc1nc(Nc2ccc(NS(=O)(=O)c3ccc(-c4ccccc4)cc3)cc2)nc2ccsc12	MT-4	MTT	ROD	148.8 µM
Cc1ccnc2c1NC(=O)c1cccnc1N2C1CC1	MT-4	cytopathic effect	ROD	>20 µg/mL
COC(=O)Cn1c(=O)c(C)cn([C@@H]2O[C@H](CO[Si](C)(C)C(C)(C)C)[C@@H](O[Si](C)(C)C(C)(C)C)[C@H]2O)c1=O	CEM	syncytia	ROD	>2 µM
Cc1cccc2c1CP(=O)(OC[C@@H]1CC[C@H](n3ccc(=O)[nH]c3=O)O1)CC2	CEM/TK-	syncytia	ROD	>50 µM
Cc1cc(C#N)cc(C)c1Oc1nc(Nc2ccc(C#N)cc2)nc(N)c1Br	MT-4	MTT	ROD	>4.585 µM
O=c1[nH]cnc2ncc(-c3cccs3)nc12	MT-4	cytopathic effect / MTT / absorbance	ROD	>48.22 µM
CCCCCCC(=O)Oc1ccc(COP(=O)(OCc2ccc(OC(=O)CCCCCC)cc2)OP(=O)([O-])OC[C@@H]2C=C[C@H](n3ccc(=O)[nH]c3=O)O2)cc1	CEM/TK-	syncytia	ROD	24 µM
CCCCCCCCCC(=O)Oc1ccc(COP(=O)(OCc2ccc(OC(=O)CCCCCCCCC)cc2)OP(=O)(O)OC[C@@H]2C=C[C@H](n3cc(C)c(=O)[nH]c3=O)O2)cc1	CEM/TK-	syncytia / microscopy	ROD	0.11 µM
Cc1cc(C#N)cc(C)c1Oc1nc(NC2CCN(S(=O)(=O)c3ccc4oc(=O)ccc4c3)CC2)nc2ccsc12	MT-4	MTT	ROD	>56.92 µM
Cc1cn([C@@H]2O[C@H](CO[Si](C)(C)C(C)(C)C)[C@@H](O)[C@H]2O[Si](C)(C)C(C)(C)C)c(=O)n(Cc2nn[nH]n2)c1=O	MT-4	cytopathic effect / trypan blue	ROD	>2 µM
Cc1cc(C#N)cc(C)c1Oc1nc(Nc2ccc(NS(=O)(=O)c3ccc4ccccc4c3)cc2)nc2ccsc12	MT-4	MTT	ROD	157.6 µM
COC(=O)CCCCn1c(=O)c(C)cn([C@@H]2O[C@H](CO[Si](C)(C)C(C)(C)C)[C@@H](O)[C@H]2O[Si](C)(C)C(C)(C)C)c1=O	MT-4	cytopathic effect / trypan blue	ROD	>10 µM
COc1ccccc1CCNC(=S)NC(=O)c1csc(-c2ccccc2)n1	MT-4	MTT	ROD	2.93 µM
CC(C)(C)[Si](C)(C)OC[C@@H]1CC[C@H](n2cnc3c(=O)n(CC(=O)O)cnc32)O1	MT-4	cytopathic effect / trypan blue	ROD	>200 µM
COC(=O)[C@H](C)NP(=O)(OC[C@@H]1C=C[C@H](n2cc(C)c(=O)[nH]c2=O)O1)Oc1ccc(F)cc1	CEM + CEM/0	syncytia	ROD	0.19 µM
CC(C)C(=O)Oc1ccc(COP(=O)(OCc2ccc(OC(=O)C(C)C)cc2)OP(=O)([O-])OC[C@@H]2CC[C@H](n3ccc(=O)[nH]c3=O)O2)cc1	CEM	syncytia	ROD	>50 µM
Fc1ccccc1-c1nc(-c2nnc(C34CCC5CC(CC3C5)C4)o2)cs1	MT-4	MTT	ROD	>97.6 µM
Cc1cc(C#N)cc(C)c1Oc1nc(Nc2ccc(NS(C)(=O)=O)cc2)nc2ccsc12	MT-4	MTT	ROD	>268.4 µM
CC(C)C(=O)Oc1ccc(COP(=O)(OCc2ccc(OC(=O)C(C)C)cc2)OP(=O)([O-])OC[C@@H]2C=C[C@H](n3ccc(=O)[nH]c3=O)O2)cc1	CEM	syncytia	ROD	23 µM
O=C(NC(=S)NCCc1ccccc1Cl)c1csc(-c2ccccc2)n1	MT-4	MTT	ROD	1.79 µM
O=C1NC23CC4CC(C2)C2C(C4)C3C2(O)c2ccccc21	CEM	syncytia	ROD	>20 µg/mL
CCCCCCC(=O)Oc1ccc(COP(=O)(OCc2ccc(OC(=O)CCCCCC)cc2)OP(=O)(O)OC[C@@H]2C=C[C@H](n3cc(C)c(=O)[nH]c3=O)O2)cc1	CEM	syncytia / microscopy	ROD	1.1 µM
O=c1[nH]cnc2nc(-c3ccccn3)c(-c3ccccn3)nc12	MT-4	cytopathic effect / MTT / absorbance	ROD	>50.52 µM
CCOS(=O)c1nsc(-c2ccc(OCc3ccccc3)cc2)c1C#N	MT-4	cytopathic effect	ROD	>125 µg/mL
CC(C)=CCOc1cc(NC(=S)c2ccsc2C)ccc1Cl	CEM + CEM-SS	p24	ROD	>2 µM
Clc1ccccc1-c1nc(-c2nnc(C34CCC5CC(CC3C5)C4)o2)cs1	MT-4	MTT	ROD	>125 µM
Cc1cn([C@@H]2O[C@H](COC(=O)C(C)(C)C)[C@@H](O)[C@H]2OC(=O)C(C)(C)C)c(=O)n(CC(=O)O)c1=O	MT-4	cytopathic effect / trypan blue	ROD	>50 µM
Cc1cccc(-c2nc(-c3nnc(C45CCC6CC(CC4C6)C5)o3)cs2)c1	MT-4	MTT	ROD	>125 µM
CC(C)c1nc(CN(C)C(=O)N[C@H](C(=O)N[C@@H](Cc2ccccc2)C[C@H](O)[C@H](Cc2ccccc2)NC(=O)OCc2cncs2)C(C)C)cs1	MT-4	cytopathic effect	ROD	0.1 µg/mL
O=C1c2ccccc2C(=O)N1C1CC2CC3CC(C2)CC1C3	CEM	syncytia	ROD	>4 µg/mL

For reference, 5 entries again:

CCCCCCCCCC(=O)Oc1ccc(COP(=O)(OCc2ccc(OC(=O)CCCCCCCCC)cc2)OP(=O)(O)OC[C@@H]2C=C[C@H](n3cc(C)c(=O)[nH]c3=O)O2)cc1 ; cell line: CEM/TK- ; read by: syncytia / microscopy ; strain or isolate: ROD ; value: 0.11 µM
O=C1c2ccccc2C(=O)N1C1CC2CC3CC(C2)CC1C3 ; cell line: CEM ; read by: syncytia ; strain or isolate: ROD ; value: >4 µg/mL
Fc1ccccc1-c1nc(-c2nnc(C34CCC5CC(CC3C5)C4)o2)cs1 ; cell line: MT-4 ; read by: MTT ; strain or isolate: ROD ; value: >97.6 µM
Cc1cc(C#N)cc(C)c1Oc1nc(Nc2ccc(C#N)cc2)nc(N)c1Br ; cell line: MT-4 ; read by: MTT ; strain or isolate: ROD ; value: >4.585 µM
S=c1[nH]c(=S)c2nc(-c3ccccn3)c(-c3ccccn3)nc2[nH]1 ; cell line: MT-4 ; read by: cytopathic effect / MTT / absorbance ; strain or isolate: ROD ; value: >93.23 µM

Blank or dashed fields: not listed here. ECn: concentration that inhibits the pathogen or its effect by n%.